Source: US20230321186A1, “Mucin Glycans as Antifungal Agents” (Massachusetts Institute of Technology, priority 2022, published 2023)

Assay: Analysis of mucin O-glycan profiles by NSI-MS (relative abundance of released glycans)
Conditions: for % Total Profile: including peeling products; for pmol/mg of total released glycan: permethylated glycans, NSI-MS; for % Total Profile w/o Peeling: without peeling products (glycans 81-83)

| Compound | % Total Profile (MUC5AC preparation) [%] | pmol/mg of total released glycan (MUC5AC preparation) [pmol/mg] | % Total Profile w/o Peeling (MUC5AC preparation) [%] | % Total Profile (MUC5B preparation) [%] | pmol/mg of total released glycan (MUC5B preparation) [pmol/mg] | % Total Profile w/o Peeling (MUC5B preparation) [%] |
| --- | --- | --- | --- | --- | --- | --- |
| CCS[C@@H]1O[C@@H]2CO[C@H](c3ccccc3)O[C@@H]2[C@H](OCc2ccccc2)[C@H]1OC(=O)c1ccccc1 [Compound 16] | 1.86 | 10.15 | 1.98 | 6.21 | 11.24 | 6.80 |
| COc1ccc([C@H]2OC[C@H]3O[C@H](OC)[C@H](NC(C)=O)[C@@H](O[C@@H]4O[C@@H]5CO[C@H](c6ccccc6)O[C@@H]5[C@H](OC(C)=O)[C@H]4OC(C)=O)[C@H]3O2)cc1 [Compound 21] | 3.83 | 20.85 | 4.07 | 2.20 | 3.99 | 2.41 |
| CO[C@H]1O[C@H](CO)[C@H](O)[C@H](O[C@@H]2O[C@H](CO)[C@H](O)[C@H](O[C@]3(C(=O)[O-])C[C@H](O)[C@@H](NC(C)=O)[C@H]([C@H](O)[C@H](O)CO)O3)[C@H]2O)[C@H]1NC(C)=O.[Na+] [Core 1+sialic acid, Methyl 3-O-(sodium 5-acetamido-3,5-dideoxy-D-glycero-α-D-galacto-2-nonulopyranosylonate)-β-D-galactopyranosyl-(1→3)-2-acetamido-2-deoxy-α-D-galactopyranoside] | 1.10 | 5.99 | 1.17 | 2.42 | 4.38 | 2.65 |
| CO[C@H]1O[C@H](CO)[C@H](O)[C@H](O[C@@H]2O[C@@H]3COC(c4ccccc4)O[C@@H]3[C@H](OCc3ccccc3)[C@H]2O[C@@H]2O[C@@H](C)[C@@H](OCc3ccccc3)[C@@H](OCc3ccccc3)[C@@H]2OCc2ccccc2)[C@H]1NC(C)=O (stereo partly drawn) [Compound 26] | 0.41 | 2.25 | 0.44 | – | – | – |
| CCS[C@@H]1O[C@@H]2CO[C@H](c3ccccc3)O[C@@H]2[C@H](OCc2ccccc2)[C@H]1O [Compound 15] | 15.98 | 87.06 | 17.00 | 2.35 | 4.25 | 2.57 |
| COC(=O)[C@@]1(O[C@@H]2[C@@H](O)[C@H](O[C@@H]3[C@@H](NC(C)=O)[C@@H](OC)O[C@@H]4CO[C@H](c5ccc(OC)cc5)O[C@H]34)O[C@@H]3CO[C@H](c4ccccc4)O[C@H]23)C[C@H](OC(C)=O)[C@@H](NC(C)=O)[C@H]([C@H](OC(C)=O)[C@@H](COC(C)=O)OC(C)=O)O1 [Compound 24] | 0.34 | 1.86 | 0.36 | 1.65 | 2.98 | 1.81 |
| CCS[C@@H]1O[C@@H]2CO[C@@H](c3ccccc3)O[C@H]2[C@H](OCc2ccccc2)[C@H]1N1C(=O)c2ccccc2C1=O [Compound 29] | 0.90 | 4.93 | 0.96 | 1.82 | 3.30 | 2.00 |
| CCS[C@@H]1O[C@@H]2CO[C@@H](c3ccccc3)O[C@H]2[C@H](O)[C@H]1N1C(=O)c2ccccc2C1=O [Compound 28] | 0.31 | 1.72 | 0.34 | 1.34 | 2.42 | 1.46 |
